Assay results: ChEMBL document CHEMBL1134815, “3,3a-Dihydropyrano[4,3,2-de]quinazolin-2(1H)-ones are potent non-nucleoside reverse transcriptase inhibitors” (Bioorg Med Chem Lett, 2001)

Test system: HIV-1 reverse transcriptase (Human immunodeficiency virus 1)
Assay: Inhibitory concentration against wild-type virus K103N/[…] and HIV-1 RT double mutant in whole cell antiviral assay

SMILES | IC90 [µM]
O=C1Nc2ccc(Cl)c3c2C(C(F)(F)F)(C=C(C2CC2)O3)N1 (configuration not stated) | 15
COc1c(Cl)ccc2c1C(C#CC1CC1)(C(F)(F)F)NC(=O)N2 (configuration not stated) | 0.377
